Anti-infective test results gathered from many reports (values: NIAID ChemDB through PubChem).

All rows: tests in culture; organism: Aspergillus niger; read-out: zone

An empty or dashed field is not shown. Zones are inhibition diameters on agar. Rows are shuffled and stem from different studies.

SMILES	method	dose	value
C(/C=C/c1ccccc1)=NCCNCCN=C/C=C/c1ccccc1.[Br][Hg][Br]	agar diffusion	30000 µg/mL	26 mm
Cc1nc(Nc2ccccc2)nc(C)c1C#N	-	100 µg/mL	1.9 mm
O=C1NC(=O)C(=Cc2cn(-c3ccccc3)nc2-c2cc3cc(Cl)cc(Cl)c3oc2=O)C(=O)N1	agar diffusion / agar	150 µg	0 mm
Cc1nc(Nc2ccccc2)nc(C)c1Br	-	1000 µg/mL	2.9 mm
O=C1NC(=O)C(=Cc2cn(-c3ccccc3)nc2-c2cc3ccccc3oc2=O)C(=O)N1	agar diffusion / agar	100 µg	0 mm
CC1(C)CCCC2(C)OCCC=C12	agar diffusion / agar	50000 µg/mL	1.35 mm
O=C1NC(=O)C(=Cc2cn(-c3ccccc3)nc2-c2cc3cc(Cl)ccc3oc2=O)C(=O)N1	agar diffusion / agar	150 µg	0 mm
CC(C)CCCCCOC(=O)c1ccccc1C(=O)OCCCCCC(C)C	agar diffusion / agar	10000 µg/mL	0 mm
O=C1NC(=S)NC(=O)C1=Cc1cn(-c2ccccc2)nc1-c1cc2ccccc2oc1=O	agar diffusion / agar	100 µg	0 mm
NC(=O)c1ccc(Cc2cn(CCc3ccccc3)c(=O)n(Cc3ccccc3)c2=O)cc1	agar diffusion / agar	50000 µg/mL	1.02 mm
Cc1nc(Nc2ccccc2)nc2c1C(=N)C(C#N)CN(Cc1ccccc1)C2	-	10 µg/mL	1 mm
O=C(O)c1ccc(O)c(O)c1	agar diffusion / agar	50000 µg/mL	0.62 mm
C(/C=C/c1ccccc1)=NCCNCCN=C/C=C/c1ccccc1.[Cl][Hg][Cl]	agar diffusion	30000 µg/mL	28 mm
Oc1ccccc1	agar diffusion / agar	50000 µg/mL	0.43 mm
OC(Cn1cncn1)(Cn1cncn1)c1ccc(F)cc1F	agar diffusion / agar	100 µg	30 mm

A second listing of 2 rows from above:

SMILES,method,dose,value
Cc1nc(Nc2ccccc2)nc2c1C(=N)C(C#N)CN(Cc1ccccc1)C2,-,10 µg/mL,1 mm
Oc1ccccc1,agar diffusion / agar,50000 µg/mL,0.43 mm